System: gp41 ectodomain protein construct C22(L4)N50
Experiment: Covalent adduct formation with gp41 ectodomain protein construct
Format: biochemical, HIV-1
Conditions: for Covalent adduct formation with C22(L4)N50 (Maldi-TOF): overnight at 37 °C, phosphate buffer pH 7.8

SMILES	Covalent adduct formation with C22(L4)N50 (Maldi-TOF)	Mass modification site (trypsin digest and LC-MS/MS)
Cn1ncc2ccc(-c3ccc4cnn(Cc5ccc(F)c(C(=O)Oc6c(F)c(F)c(S(=O)(=O)O)c(F)c6F)c5)c4c3)cc21 [Compound 2-STP]	adduct formation could be completed	predominantly at K574
CCOC(=O)c1cc(O)n(-c2ccc(C(=O)Oc3c(F)c(F)c(S(=O)(=O)O)c(F)c3F)cc2)n1 [Compound 3-STP]	only a small amount of the adduct	
